This note sets out measurements from US10029984B2, “Mono- or di-substituted indole derivatives as dengue viral replication inhibitors” (Janssen Pharmaceuticals, Inc., priority 2015, dated 2018).

One data set deals with DENV-2 16681 strain. The experiment in a line: DENV-2 antiviral assay (eGFP-labeled virus in Vero cells). The data set is classed as cell-based, Dengue virus. Conditions: SI=CC50/EC50, DENV-2 antiviral assay. The method, then:
The antiviral activity of all the compounds of the invention was tested against DENV-2 16681 strain which was labeled with enhanced green fluorescent protein (eGPF; Table 1). The culture medium consists of minimal essential medium supplemented with 2% of heat-inactivated fetal calf serum, 0.04% gentamycin (50 mg/mL) and 2 mM of L-glutamine. Vero cells, obtained from ECACC, were suspended in culture medium and 25 μL was added to 384-well plates (2500 cells/well), which already contain the antiviral compounds. Typically, these plates contain a 4-fold serial dilution of 9 dilution steps of the test compound at 200 times the final concentration in 100% DMSO (200 nL). In addition, each compound concentration is tested in quadruplicate (final concentration range: 25 μM-0.00038 μM). Finally, each plate contains wells which are assigned as virus controls (containing cells and virus in the absence of compound), cell controls (containing cells in the absence of virus and compound) and medium controls (containing medium in the absence of cells, virus and compounds). To the wells assigned as medium control, 25 μL of culture medium was added instead of Vero cells. Once the cells were added to the plates, the plates were incubated for 30 minutes at room temperature to allow the cells to distribute evenly within the wells. Next, the plates were incubated in a fully humidified incubator (37° C., 5% CO2) until the next day. Then, DENV-2 strain 16681, labeled with eGFP, was added at a multiplicity of infection (MOI) of 0.5. Therefore, 15 μL of virus suspension was added to all the wells containing test compound and to the wells assigned as virus control. In parallel, 15 μL of culture medium was added to the medium and cell controls. Next, the plates were incubated for 3 days in a fully humidified incubator (37° C., 5% CO2). At the day of the read out, the eGFP fluorescence was measured using an automated fluorescence microscope at 488 nm (blue laser). Using an in-house LIMS system, inhibition dose response curves for each compound were calculated and the half maximal effective concentration (EC50) was determined. Therefore, the percent inhibition (I) for every test concentration is calculated using the following formula: I=100*(ST−SCC)/(SVC−SCC); ST, SCC and SVC are the amount of eGFP signal in the test compound, cell control and virus control wells, respectively. The EC50 represents the concentration of a compound at which the virus replication is inhibited with 50%, as measured by a 50% reduction of the eGFP fluorescent intensity compared to the virus control. The EC50 is calculated using linear interpolation.
Take `COc1cc(NC(C(=O)c2c[nH]c3cc(F)ccc23)c2ccc(F)cc2OC)cc(S(C)(=O)=O)c1` (racemic) [Compound 1, 1-(6-fluoro-1H-indol-3-yl)-2-(4-fluoro-2-methoxyphenyl)-2-((3-methoxy-5-(methylsulfonyl)phenyl)amino)ethanone]: the SI was determined as 4879.

As to `COc1cc(NC(C(=O)c2c[nH]c3c(C)c(F)ccc23)c2ccc(F)cc2OC)cc(S(C)(=O)=O)c1` (racemic) [Compound 2, 2-(4-fluoro-2-methoxyphenyl)-1-(6-fluoro-7-methyl-1H-indol-3-yl)-2-((3-methoxy-5-(methylsulfonyl)phenyl)amino)ethanone], the SI stood at 6338.

`COc1cc(NC(C(=O)c2c[nH]c3c(C)c(Cl)ccc23)c2ccc(F)cc2OC)cc(S(C)(=O)=O)c1` (racemic) [Compound 3, 1-(6-chloro-7-methyl-1H-indol-3-yl)-2-(4-fluoro-2-methoxyphenyl)-2-((3-methoxy-5-(methylsulfonyl)phenyl)amino)ethanone] had an SI of 10845.

`COc1cc(NC(C(=O)c2c[nH]c3cc(Cl)ccc23)c2ccc(F)cc2OC)cc(S(C)(=O)=O)c1` (racemic) [Compound 4, 1-(6-chloro-1H-indol-3-yl)-2-(4-fluoro-2-methoxyphenyl)-2-((3-methoxy-5-(methylsulfonyl)phenyl)amino)ethanone] returned an SI of 6211.

Regarding `COc1cc(NC(C(=O)c2c[nH]c3cc(OC)ccc23)c2ccc(F)cc2OC)cc(S(C)(=O)=O)c1` (racemic) [Compound 5, 2-(4-fluoro-2-methoxyphenyl)-1-(6-methoxy-1H-indol-3-yl)-2-((3-methoxy-5-(methylsulfonyl)phenyl)amino)ethanone], the SI was 10164.

`COc1cc(NC(C(=O)c2c[nH]c3cc(F)c(F)cc23)c2ccc(F)cc2OC)cc(S(C)(=O)=O)c1` (racemic) [Compound 7, 1-(5,6-difluoro-1H-indol-3-yl)-2-(4-fluoro-2-methoxyphenyl)-2-((3-methoxy-5-(methylsulfonyl)phenyl)amino)ethanone] yielded an SI of 3411.

As to `COc1cc(NC(C(=O)c2c[nH]c3c(C)cc(F)cc23)c2ccc(F)cc2OC)cc(S(C)(=O)=O)c1` (racemic) [Compound 8, 2-(4-fluoro-2-methoxyphenyl)-1-(5-fluoro-7-methyl-1H-indol-3-yl)-2-((3-methoxy-5-(methylsulfonyl)phenyl)amino)ethanone], the SI turned out to be 2710.

Take `COc1cc(NC(C(=O)c2c[nH]c3cc(C)c(F)cc23)c2ccc(F)cc2OC)cc(S(C)(=O)=O)c1` (racemic) [Compound 9, 2-(4-fluoro-2-methoxyphenyl)-1-(5-fluoro-6-methyl-1H-indol-3-yl)-2-((3-methoxy-5-(methylsulfonyl)phenyl)amino)ethanone]: the SI came out at 5457.

Turning to `COc1cc(NC(C(=O)c2c[nH]c3cc(OC)c(C)cc23)c2ccc(F)cc2OC)cc(S(C)(=O)=O)c1` (racemic) [Compound 10, 2-(4-fluoro-2-methoxyphenyl)-2-((3-methoxy-5-(methylsulfonyl)phenyl)amino)-1-(6-methoxy-5-methyl-1H-indol-3-yl)ethanone], the SI was determined as 7070.

Turning to `COc1cc(NC(C(=O)c2c[nH]c3cc(OC)c(F)cc23)c2ccc(F)cc2OC)cc(S(C)(=O)=O)c1` (racemic) [Compound 11, 2-(4-fluoro-2-methoxyphenyl)-1-(5-fluoro-6-methoxy-1H-indol-3-yl)-2-((3-methoxy-5-(methylsulfonyl)phenyl)amino)ethanone], the SI is recorded as 4058.

As for `COc1cc(NC(C(=O)c2c[nH]c3c(Cl)c(OC)ccc23)c2ccc(F)cc2OC)cc(S(C)(=O)=O)c1` (racemic) [Compound 12, 1-(7-chloro-6-methoxy-1H-indol-3-yl)-2-(4-fluoro-2-methoxyphenyl)-2-((3-methoxy-5-(methylsulfonyl)phenyl)amino)ethanone], the SI is >65542.

Turning to `COc1cc(NC(C(=O)c2c[nH]c3c(F)c(F)ccc23)c2ccc(F)cc2OC)cc(S(C)(=O)=O)c1` (racemic) [Compound 13, 1-(6,7-difluoro-1H-indol-3-yl)-2-(4-fluoro-2-methoxyphenyl)-2-((3-methoxy-5-(methylsulfonyl)phenyl)amino)ethanone], the SI stood at 5298.

Regarding `COc1cc(NC(C(=O)c2c[nH]c3cc(F)c(C)cc23)c2ccc(F)cc2OC)cc(S(C)(=O)=O)c1` (racemic) [Compound 14, 2-(4-fluoro-2-methoxyphenyl)-1-(6-fluoro-5-methyl-1H-indol-3-yl)-2-((3-methoxy-5-(methylsulfonyl)phenyl)amino)ethanone], the SI was determined as 3360.

Compound `COc1cc(NC(C(=O)c2c[nH]c3ccc(C)cc23)c2ccc(F)cc2OC)cc(S(C)(=O)=O)c1` (racemic) [Compound 15, 2-(4-fluoro-2-methoxyphenyl)-2-((3-methoxy-5-(methylsulfonyl)phenyl)amino)-1-(5-methyl-1H-indol-3-yl)ethanone] showed an SI of 5240.

`COc1cc(NC(C(=O)c2c[nH]c3cc(OC)c(Cl)cc23)c2ccc(F)cc2OC)cc(S(C)(=O)=O)c1` (racemic) [Compound 16, 1-(5-chloro-6-methoxy-1H-indol-3-yl)-2-(4-fluoro-2-methoxyphenyl)-2-((3-methoxy-5-(methylsulfonyl)phenyl)amino)ethanone] yielded an SI of 13287.

`COc1cc(NC(C(=O)c2c[nH]c3ccc(C(F)(F)F)cc23)c2ccc(F)cc2OC)cc(S(C)(=O)=O)c1` (racemic) [Compound 17, 2-(4-fluoro-2-methoxyphenyl)-2-((3-methoxy-5-(methylsulfonyl)phenyl)amino)-1-(5-(trifluoromethyl)-1H-indol-3-yl)ethanone] yielded an SI of 19799.

Consider `COc1cc(NC(C(=O)c2c[nH]c3ccc(OC(F)(F)F)cc23)c2ccc(F)cc2OC)cc(S(C)(=O)=O)c1` (racemic) [Compound 18, 2-(4-fluoro-2-methoxyphenyl)-2-((3-methoxy-5-(methylsulfonyl)phenyl)amino)-1-(5-(trifluoromethoxy)-1H-indol-3-yl)ethanone], for which the SI is recorded as >15249.

The same data set, now with this note: SI=CC50/EC50, DENV-2 antiviral assay; listed as 1B.
The compound `COc1cc(NC(C(=O)c2c[nH]c3cc(F)ccc23)c2ccc(F)cc2OC)cc(S(C)(=O)=O)c1` (single isomer, unassigned) [Enantiomer 1B, 1-(6-fluoro-1H-indol-3-yl)-2-(4-fluoro-2-methoxyphenyl)-2-((3-methoxy-5-(methylsulfonyl)phenyl)amino)ethanone] displayed an SI of 283.

The data set is the same for the next values; noted with them: SI=CC50/EC50, DENV-2 antiviral assay; listed as 2B.
`COc1cc(NC(C(=O)c2c[nH]c3c(C)c(F)ccc23)c2ccc(F)cc2OC)cc(S(C)(=O)=O)c1` (single isomer, unassigned) [Enantiomer 2B, 2-(4-fluoro-2-methoxyphenyl)-1-(6-fluoro-7-methyl-1H-indol-3-yl)-2-((3-methoxy-5-(methylsulfonyl)phenyl)amino)ethanone]: the SI turned out to be 146.

Staying with this data set, now noted: SI=CC50/EC50, DENV-2 antiviral assay; listed as 3B.
With `COc1cc(NC(C(=O)c2c[nH]c3c(C)c(Cl)ccc23)c2ccc(F)cc2OC)cc(S(C)(=O)=O)c1` (single isomer, unassigned) [Enantiomer 3B, 1-(6-chloro-7-methyl-1H-indol-3-yl)-2-(4-fluoro-2-methoxyphenyl)-2-((3-methoxy-5-(methylsulfonyl)phenyl)amino)ethanone], the SI was 324.
